PubChem BioAssay AID1258 (University of Pittsburgh Molecular Library Screening Center, 2008)
The list shows a part of the results, in another mix than the full data. Activity calls are given as the source filed them.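 How the source made its calls: active means inhibition above about 50% in both repeat tests (limit read from the data); inconclusive means one repeat under the set limit, the other over it; inactive means both repeats under the set limit.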

Assay: Leishmania major promastigote growth inhibition, confirmation, 1 µM repeat of primary hits (AID 1258)
Conditions: L. major promastigote growth, resazurin fluorescence, 48 h; at 1 µM; stronger effect = higher value
Method in brief: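 Assay system: Leishmania major promastigote parasites. Amount: 5,000 promastigotes per well. Incubation: 44 h compound exposure plus 4 h dye step, both 28 °C. Evaluation: parasite viability inhibition versus plate controls. Benchmarks: DMSO high/low controls plus tamoxifen reference.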
In the case of O=[N+]([O-])c1cc([N+](=O)[O-])c(-c2ccn[nH]2)s1, the inhibition is reported as active: 66.1%.
